Results published in PubChem BioAssay (NCI).
The list shows a part of the results, in another mix than the full data. A structure can be active in one record and inactive in another. Activity calls are given as the source filed them. No stated cut-off is given here; in the data, active means growth inhibition above about 70%; inactive means the rest.

Columns and labels:
[1] = NCI Yeast Anticancer Drug Screen. Data for the cln2 rad14 strain (AID 165);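 further: 0% = growth equal to vehicle treated cultures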; conditions: S. cerevisiae cln2 rad14 strain, active compounds read high
[2] = NCI Yeast Anticancer Drug Screen. Data for the bub3 strain (AID 167); conditions: S. cerevisiae bub3 mutant strain, active compounds read high
[3] = NCI Yeast Anticancer Drug Screen. Data for the mlh1 rad18 strain (AID 175); conditions: S. cerevisiae mlh1 rad18 strain growth inhibition, active compounds read high
[4] = at 5.0 µM (retest, dose inferred, filed as 0.5)
[5] = at 50.0 µM (retest, dose inferred, filed as 5.0)

Measured: growth inhibition

NP(=O)(O)N(CCCl)CCCl
inactive: [1]; [4] 2% | [1]; at 50.0 µM 26.3% | [2]; [4] 1% | [2]; [5] 44% | [2]; at 50.0 µM 51.3% | [3]; [4] -2% | [3]; [5] 30% | [3]; at 50.0 µM 18.2%
